Compound potency records, mixed from different reports. Data source: NIAID ChemDB in PubChem.

All rows: whole-cell or culture tests; agent: HIV-2; measure: EC50

ECn is the concentration giving n% inhibition of infection, replication or growth.

structure,method,strain or isolate,cell line,result
COc1ccc(S(=O)(=O)Nc2ccc(-c3nnc(-c4ccc(C)cc4)o3)cc2)cc1,cytopathic effect,ROD,MT-4,>103 µg/mL
COC(=O)[C@@H](NP(=O)(OC[C@@H]1C=C[C@H](n2cc(C)c(=O)[nH]c2=O)O1)Oc1ccccc1)C(C)C,cytopathic effect / microscopy,-,CEM + CEM/0,13 µM
CCCCCCCCCCCCCCCC(=O)Oc1ccc(COP(=O)(OCc2ccc(OC(=O)CCCCCCCCCCCCCCC)cc2)OP(=O)(O)OC[C@@H]2C=C[C@H](n3cc(C)c(=O)[nH]c3=O)O2)cc1,syncytia / microscopy,ROD,CEM,1.7 µM
Cc1cc(C=O)cc(C)c1Oc1ncc(N)c(Nc2ccc(C#N)cc2)n1,MTT,ROD,MT-4,>34 µM
CCCCCCCCCCCCCC(=O)Oc1ccc(COP(=O)(OCc2ccc(OC(=O)CCCCCCCCCCCCC)cc2)OP(=O)(O)OC[C@@H]2C=C[C@H](n3cc(C)c(=O)[nH]c3=O)O2)cc1,syncytia / microscopy,ROD,CEM,2 µM
Nc1ncnc2c1ccn2[C@H]1C=C[C@@H](CO)C1,RT activity,D205,PBMC,0.35 µM
O=C(O)c1cc(Cc2cc(C(c3ccc(O)c(C(=O)O)c3)c3ccc(O)c(C(=O)O)c3)cc(C(=O)O)c2O)ccc1O,cytopathic effect / MTT,ROD,MT-4,5.9 µg/mL
CC[C@@H](NS(=O)(=O)c1ccc(Cl)cc1)c1n[nH]c(=S)o1,cytopathic effect,ROD,MT-4,>125 µg/mL
COc1c(Cl)cc(C(=CCCNC(=O)C[C@H]2CC[C@]3(C)C4CC[C@@]5(C)C(CC[C@@H]5CC(=O)NCCC=C(c5cc(Cl)c(OC)c(C(=O)O)c5)c5cc(Cl)c(OC)c(C(=O)O)c5)C4CC[C@H]3C2)c2cc(Cl)c(OC)c(C(=O)O)c2)cc1C(=O)O,cytopathic effect / MTT,ROD,CEM + CEM-SS,52 µM
COC(=O)[C@H](Cc1ccccc1)NP(=O)(OC[C@@H]1C=C[C@H](n2cc(C)c(=O)[nH]c2=O)O1)Oc1ccccc1,cytopathic effect / microscopy,-,CEM + CEM/0,1.4 µM
CN1C(=O)[C@]2(C[C@@H]2c2ccccc2)c2cc(Cl)ccc21,MTT,ROD,MT-4,>10.24 µg/mL
CCCCCCCCCC(=O)Oc1ccc(COP(=O)(OCCC#N)OP(=O)(O)OC[C@@H]2C=C[C@H](n3cc(C)c(=O)[nH]c3=O)O2)cc1,syncytia / microscopy,ROD,CEM,5 µM
COc1ccc(S(=O)(=O)NCCCc2n[nH]c(=S)o2)cc1,cytopathic effect,ROD,MT-4,>125 µg/mL
Cc1ccc(C)c(C(Cl)S(=O)(=O)c2cc(C)cc[n+]2[O-])c1,syncytia,EHO,CEM,>4 µg/mL
CC(=O)Nc1cnc(Oc2c(C)cc(Br)cc2C)nc1Nc1ccc(C#N)cc1,MTT,ROD,MT-4,>147 µM
Cc1cn([C@H]2C=C[C@@H](CO)O2)c(=O)[nH]c1=O,-,-,CEM,0.25 µM
COC(=O)[C@H](C)NP(=O)(OC[C@@H]1C=C[C@H](n2cc(C)c(=O)[nH]c2=O)O1)Oc1ccccc1,syncytia,ROD,CEM + CEM TK-,0.075 µM
Cc1cccc(CS(=O)(=O)c2cccc[n+]2[O-])c1,syncytia,EHO,CEM,14 µg/mL
O=C(O)c1cccc(Cc2cccc(C(=O)O)c2O)c1O,syncytia,ROD,MOLT-4/HUT-78,9 µg/mL
COc1c(Cl)cc(C(=CCCCCN[C@H]2CC[C@]3(C)C4CC[C@@]5(C)C(CC[C@@H]5C(C)CCCC(C)C)C4CC[C@H]3C2)c2cc(Cl)c(OC)c(C(=O)O)c2)cc1C(=O)O,cytopathic effect / MTT,ROD,CEM + CEM-SS,>150 µM
O=C1Nc2ccc(F)cc2[C@@]12C[C@@H]2c1ccccc1,MTT,ROD,MT-4,>10.85 µg/mL
C[C@]12CCC3C(CC[C@H]4C[C@@H](CCC=C(c5cc(Cl)c(O)c(C(=O)O)c5)c5cc(Cl)c(O)c(C(=O)O)c5)CC[C@]34C)C1CC[C@@H]2CCC=C(c1cc(Cl)c(O)c(C(=O)O)c1)c1cc(Cl)c(O)c(C(=O)O)c1,cytopathic effect / MTT,ROD,CEM + CEM-SS,74 µM
CC(=O)Oc1ccccc1COP(=O)(OCc1ccccc1OC(C)=O)OC[C@@H]1C=C[C@H](n2cc(C)c(=O)[nH]c2=O)O1,-,-,CEM + CEM TK-,0.48 µM
Cc1ccc(C)c(CS(=O)(=O)c2ccccn2)c1,syncytia,ROD,CEM,>20 µg/mL
CC(=O)Nc1cnc(Oc2c(C)cc(C)cc2C)nc1Nc1ccc(C#N)cc1,MTT,ROD,MT-4,>322 µM
Cc1ccc(-c2nnc(-c3ccc(NS(=O)(=O)c4ccc(C)cc4)cc3)o2)cc1,cytopathic effect,ROD,MT-4,>119 µg/mL
Cc1ccc(C)c(CS(=O)(=O)c2cccc[n+]2[O-])c1,syncytia,ROD,CEM,10 µg/mL
C[C@]12CCC3C(CC[C@H]4C[C@@H](CC=C(c5cc(Cl)c(O)c(C(=O)O)c5)c5cc(Cl)c(O)c(C(=O)O)c5)CC[C@]34C)C1CC[C@@H]2CC=C(c1cc(Cl)c(O)c(C(=O)O)c1)c1cc(Cl)c(O)c(C(=O)O)c1,cytopathic effect / MTT,ROD,MT-4,60 µM
CCCCC(=O)Oc1ccc(COP(=O)(OCc2ccc(OC(=O)CCCC)cc2)OP(=O)(O)OC[C@@H]2C=C[C@H](n3cc(C)c(=O)[nH]c3=O)O2)cc1,syncytia / microscopy,ROD,CEM/TK-,15 µM
C[C@@H](NS(=O)(=O)c1ccc(Cl)cc1)C(=O)NN,cytopathic effect,ROD,MT-4,>125 µg/mL
N#Cc1ccc(Nc2nc(Oc3c(Cl)cccc3Cl)ncc2NC(=O)C(F)(F)F)cc1,MTT,ROD,MT-4,>190 µM
O=C(O)c1cc(C(O)(c2ccc(O)c(C(=O)O)c2)c2ccc(O)c(C(=O)O)c2)ccc1O,syncytia,ROD,MOLT-4/HUT-78,40 µg/mL

A second listing of 2 rows from above:

structure,method,strain or isolate,cell line,result
CC[C@@H](NS(=O)(=O)c1ccc(Cl)cc1)c1n[nH]c(=S)o1,cytopathic effect,ROD,MT-4,>125 µg/mL
CCCCCCCCCCCCCCCC(=O)Oc1ccc(COP(=O)(OCc2ccc(OC(=O)CCCCCCCCCCCCCCC)cc2)OP(=O)(O)OC[C@@H]2C=C[C@H](n3cc(C)c(=O)[nH]c3=O)O2)cc1,syncytia / microscopy,ROD,CEM,1.7 µM

Conditions beyond the fields shown may differ between rows. Blank or dashed fields: not listed here.